Experimental data published in patent US20180244756A1 (US Dept. of Health and Human Services, published 2018).

Target: T1, MERS-CoV S protein receptor binding domain (RBD), England1 strain, soluble (MERS-CoV, England1 strain, UniProt K9N5Q8 367-606)
T1 sequence: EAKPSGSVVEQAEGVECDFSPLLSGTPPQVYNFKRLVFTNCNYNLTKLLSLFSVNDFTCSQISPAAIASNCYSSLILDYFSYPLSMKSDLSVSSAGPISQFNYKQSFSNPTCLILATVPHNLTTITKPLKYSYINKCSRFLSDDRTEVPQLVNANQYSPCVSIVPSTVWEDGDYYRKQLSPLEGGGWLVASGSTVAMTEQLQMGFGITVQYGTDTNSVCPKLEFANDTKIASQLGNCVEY
Assay: ELISA on RBD, mAb titrated 0.0032-10 µg/ml

B1: D12 antibody (antibody, V domains shown)
VH: EVKLVESGGGLVKPGGSLKLSCAASGFTFSSYAMSWVRQTPEKRLEWVATISSGGTYTYYPDSVKGRFTISRDNAENTLYLQMSSLRSEDTAMYYCVRDGNSMDYWGQGTSVTVSS
VL: DIQMTQTTSSLSASLGDRVTIICRASQDINNYLNWYQQKPDGTVKLLIYYTSRLHSGVPSRFSGSGSGSDYSLTISNLEQEDIATYFCQQANTLPPTFGAGTKLELR
- EC50 (read off the curve): ~0.05 µg/mL
